Test results: publication PMC7660905, “Convergent structural features of respiratory syncytial virus neutralizing antibodies and plasticity of the site V epitope on prefusion F” (2020)

Biological target: RSB1 IgG (human neutralizing monoclonal antibody)
Experiment: SPR
Conditions: read off a plot; for Kd: parent: est. 1.5e-10; for ratio to parent: parent: est. 1.0

Row | Substance | Kd | ratio to parent
1 | DS-Cav1 (stabilized prefusion RSV glycoprotein F) (from UniProt P03420) D200N | 73 pM | 0.5
2 | DS-Cav1 (stabilized prefusion RSV glycoprotein F) (from UniProt P03420) D200N; N276S | 73 pM | 0.5
3 | DS-Cav1 (stabilized prefusion RSV glycoprotein F) (from UniProt P03420) K65A | 570 pM | 
4 | DS-Cav1 (stabilized prefusion RSV glycoprotein F) (from UniProt P03420) N63A | 130 pM | 0.9
5 | DS-Cav1 (stabilized prefusion RSV glycoprotein F) (from UniProt P03420) N63A; K65A | 2400 pM | 
6 | DS-Cav1 (stabilized prefusion RSV glycoprotein F) (from UniProt P03420) N276S | 25 pM | 0.2
